According to paper PMC10141620 (Viruses, 2023):

tested on: NL4-3ΔEnv-NanoLuc/SARS-CoV-2 (USA-WA1/2020) pseudovirus; format: cell-based; settings: ratio CC50 / IC50

Row | SMILES | SI
1 | Cc1cc(C(=O)O)ccc1-c1ccc(/C=c2\sc3nc4ccccc4n3c2=O)o1 [NBCoV70] | >5
2 | O=C(O)c1ccc(-c2ccc(/C=c3/sc4nc5ccccc5n4c3=O)o2)cc1Cl [NBCoV75] | >10 and >15
3 | Cc1cc2nc3s/c(=C/c4ccc(-c5ccc(Cl)cc5)o4)c(=O)n3c2cc1C [NBCoV78] | >6
4 | Cc1cc2nc3s/c(=C/c4ccc(-c5cccc(C(=O)O)c5)o4)c(=O)n3c2cc1C [NBCoV63] | > 625 and 909
5 | Cc1ccc2c(nc3s/c(=C/c4ccc(-c5ccc(C(=O)O)cc5)o4)c(=O)n32)c1C [NBCoV69] | >20 and >17
6 | O=C(O)c1cc(-c2ccc(/C=c3\sc4nc(=O)c5c6c(sc5n4c3=O)CCCC6)o2)ccc1Cl [NBCoV36] | 130 and >220
7 | Cc1cc(C)c2nc3s/c(=C\c4ccc(-c5ccc(Cl)c(C(=O)O)c5)o4)c(=O)n3c2c1 [NBCoV37] | 644 and 345
8 | Cc1cc2nc3s/c(=C/c4ccc(-c5ccccc5C(=O)O)o4)c(=O)n3c2cc1C [NBCoV81] | > 109 and >129
9 | Cc1ccc2c(nc3s/c(=C\c4ccc(-c5ccccc5C(=O)O)o4)c(=O)n32)c1C [NBCoV68] | >13 and >22
10 | Cc1ccc2nc3s/c(=C/c4coc(-c5ccc(Cl)c(C(=O)O)c5)c4)c(=O)n3c2c1 [NBCoV35] | 253 and 397

Several values for one entry are separate records, joined by “and”; a condition that tells them apart may be missing. Equal values may be shown once.
